Assay results published in PMC12455930, “LEF-6 phosphorylation regulates the binding and trafficking of baculovirus late gene transcripts”.
The exact form of at least one protein or probe is not confirmed.

Experiments:
[1] = target: LEF-6 (phosphorylated, insect cell) (UniProt S5G646); assay: EMSA; settings: EMSA: 10 mM Tris pH 7.5, 20 mM KCl, 1 mM MgCl2, 1 mM DTT, 20 uM RNA, 22 C; recombinant protein; residues 1-173; protein details: His
[2] = target: LEF-6 (phosphorylated, insect cell) (UniProt S5G646); assay: fluorescence anisotropy; settings: Anisotropy: 20 mM Tris-HCl pH 7.5, 20 mM NaCl, 5 nM FAM-ssRNA, 28 C; recombinant protein; residues 1-173; protein details: His

Row | Sequence | binding result [1] | binding result [2]
1 | CGGUUUGCCCGCUCAAUUGACCGAUCU [p10 ssRNA] | binds | binds
2 | GACAGGUCGCCGAAGUUACAGAACACG [p6.9 ssRNA] | binds | binds
